# Measurements as given in PMC8927147, “Global profiling of regulatory elements in the histone benzoylation pathway” (Nature Communications, 2022).
# “And” between values parts separate entries of the source, which are not always exact repeats. Identical values can stand only once.
# Test system: BY4742 cells
# Experiment: HPLC-MS/MS analysis of cellular benzoyl-CoA
# Assay type: cell-based, Saccharomyces cerevisiae
# Details: BY4742 cells treated with 10 mM sodium benzoate for 6 h, LC-MS/MS, single experiment
compound,measurement,setting,value
CC(C)(COP(=O)(O)OP(=O)(O)OC[C@H]1O[C@@H](n2cnc3c(N)ncnc32)[C@H](O)[C@@H]1OP(=O)(O)O)[C@@H](O)C(=O)NCCC(=O)NCCSC(=O)c1ccccc1 [benzoyl-CoA],cellular concentration of benzoyl-CoA,"MRM, standard curve",approximately 0.33 μM
same,cellular concentration of benzoyl-CoA,,~296 ng/mL and ~296.35 ng/mL
